# Measurements: patent publication US6066628A, “Non-iron metalloporphyrins and methods of use” (Emory University, priority 1998, dated 2000)
# System: Y. enterocolitica
# Test: Minimal inhibitory concentration / sensitivity in broth
# Type: cell-based
# Settings: fur mutant H1852; Nutrient broth (Table 2)
substance,measurement,value
Gadolinium protoporphyrin IX,Minimal inhibitory concentration (MIC),5 µg/mL
